Pooled drug test results. Numbers come from NIAID ChemDB, via PubChem.

Shared fields: growth or infection tests; agent: Mycobacterium tuberculosis

Blank or dashed fields: not listed here.

compound,strain,changes,method,setting,read-out,dose,value
CN[C@@H]1[C@@H](O)[C@@H](O[C@@H]2[C@@H](O)[C@H](O[C@H]3O[C@H](CN)CC[C@H]3N)[C@@H](N)C[C@H]2N)OC[C@]1(C)O,Praha 4,-,-,-,MIC,-,0.52 µM
COc1ccc(C2SCC(=O)N2NC(=O)COc2ccc(NC(C)=O)cc2)cc1,H37Rv,-,-,-,EC50,-,>12.5 µg/mL
Cc1c(OCC(F)(F)F)ccnc1CSc1nc2ccccc2[nH]1,Erdman,-,resazurin,-,MIC90,-,1.21 µM
O=C(Nc1ccccc1)OCCN=c1c2ccccc2ccc2ccccc12,H37Rv,-,BACTEC,-,inhibition,12.5 µg/mL,31%
Fc1ccc(Nc2nnc(-c3ccc(NC(=S)Nc4ccccc4)cc3)s2)cc1,H37Rv,-,-,-,MIC,-,>6.25 µg/mL
O=C(c1cn(CCBr)nn1)c1cccs1,H37Rv,-,-,-,MIC,-,<12.5 µg/mL
CCOC(=O)c1cc(-c2ccccc2)n(CC(=O)N/N=C/c2cn(C(C)=O)c3ccccc23)c1C,H37Rv,-,BACTEC,-,inhibition,6.25 µg/mL,25%
CCOC(=O)/C(N=Nc1ccc(-c2n[nH]c(=O)n2-c2ccccc2)cc1)=C(\C)O,H37Rv,-,-,-,inhibition,12.5 µg/mL,0%
Cn1cnc2c(NS(=O)(=O)c3cccc(C#N)c3)nc(Cl)cc21,H37Rv,-,visual reading,-,MIC99,-,>25 µM
COc1ccc(-n2cc(CNC3c4ccccc4-c4ccccc43)nn2)cc1,Specimen 192,-,broth dilution,-,MIC99,-,136 µM
CN(C)c1cccc2c(Cl)c(Cl)c3cccc(N(C)C)c3c12,H37Rv,-,resazurin,-,MIC,-,6.25 µg/mL
CCOC(=O)c1cc(-c2ccc(OC)cc2)n(CCC(=O)NN)c1C,H37Rv,-,BACTEC,-,EC50,-,>6.25 µg/mL
CC(=O)Nc1ccc(OCC(=O)NN2C(=O)CSC2c2ccccc2[N+](=O)[O-])cc1,H37Rv,-,-,-,EC50,-,>12.5 µg/mL
O=C(c1cn[nH]n1)c1ccc(Cl)cc1Cl,H37Rv,-,-,-,MIC,-,>12.5 µg/mL
C[C@H]1COc2c(N3CCN(C)CC3)c(F)cc3c(=O)c(C(=O)O)cn1c23,23 strains (rifampin- isoniazid-susceptible),-,-,-,MIC90,-,0.39 µg/mL
O=C(NCCNC(=O)c1cccnc1)c1cccnc1,H37Rv,-,BACTEC,-,MIC,-,≥12.5 µg/mL
O=[N+]([O-])c1ccc(-n2cc(CNC3c4ccccc4-c4ccccc43)nn2)cc1,H37Rv,-,broth dilution,-,MIC99,-,>261 µM
CO[C@H]1/C=C/O[C@@]2(C)Oc3c(C)c(O)c4c(O)c(c(/C=N/N5CCN(C)CC5)c(O)c4c3C2=O)NC(=O)/C(C)=C\C=C\[C@H](C)[C@H](O)[C@@H](C)[C@@H](O)[C@@H](C)[C@H](OC(C)=O)[C@@H]1C,4S,-,-,-,MIC,-,1 µg/mL
CC[N+](CC)=c1ccc2nc3c(cc(Nc4ccccc4)c4ccccc43)oc-2c1.[Cl-].[Cl][Zn][Cl],H37Rv,-,BACTEC,-,MIC bound,-,>128 µg/mL
CCc1ccc(-n2cc(CS(=O)(=O)C3c4ccccc4-c4ccccc43)nn2)cc1,H37Rv,-,broth dilution,-,MIC99,-,120 µM
Fc1cccc(CSc2ncn[nH]2)c1,My 331/88,-,-,-,MIC,-,250 µM
CC(C)=CCC1C(=O)C(CC=C(C)C)(CC=C(C)C)C(O)C(C(=O)C(C)C)C1O,Isolate N,-,-,-,MIC,-,40.6 µg/mL
CCCCc1ccc(Nc2c(C#N)[n+]([O-])c3cc(Cl)ccc3[n+]2[O-])cc1,H37Rv,-,-,-,EC50,-,<12.5 µg/mL
O=c1ccc2ncccc2n1CCN1CCC(NCc2cc(Cl)c(Cl)cn2)CC1,Canettii,-,resazurin,-,MIC,-,0.15 µg/mL
Cn1cnc2c(NC(=O)Nc3cccc(Cl)c3)nc(Cl)cc21,H37Rv,-,visual reading,-,MIC99,-,12.5 µM
O=C(c1cn(-c2cccc3ccccc23)nn1)c1ccc(Cl)cc1Cl,H37Rv,-,-,-,MIC,-,>12.5 µg/mL
CCOC(=O)c1cc(-c2ccc(OC)cc2)n(CC(=O)N/N=C/c2ccc([N+](=O)[O-])o2)c1C,H37Rv,-,BACTEC,-,EC50,-,>6.25 µg/mL
CCCCC(=O)Nc1ccc(S(=O)(=O)O)c(N=NC2C(=O)N(c3ccccc3)N=C2C)c1,H37Rv,-,BACTEC,-,MIC bound,-,>12.8 µg/mL
N[C@@H]1CN(c2c(F)cc3c(=O)c(C(=O)O)cn([C@@H]4C[C@@H]4F)c3c2Cl)CC12CC2,18 strains (levofloxacin-resistant),-,-,-,MIC50,-,0.78 µg/mL
O=[N+]([O-])c1ccc(N=NNc2ccc([N+](=O)[O-])cc2Cl)c(Cl)c1,H37Ra-lux,-,luminescence,-,EC90,-,7.27 µM
C=C(NC(CC(C)C)C(=O)N1CCCC1C(=O)O)C1CCCN1C(=O)C(NC(=O)C(C)NC(=O)C(NC(=O)C(NC=O)C(C)CC)C(C)O)C(C)C,MDR,-,agar,-,MIC,-,16 µg/mL
CC(C)c1ccc(C2C3=C(N=C4SCC(=O)N42)C(=O)c2ccccc23)cc1,H37Rv,-,BACTEC,-,MIC bound,-,>12.5 µg/mL
CCOC(=O)c1cc(-c2ccc([N+](=O)[O-])cc2)n(CC(=O)NN)c1C,H37Rv,-,BACTEC,-,EC50,-,>6.25 µg/mL
COc1ccc(Cc2ccc3[nH]c(=O)cc(C)c3c2)cc1S(=O)(=O)O,H37Rv,-,BACTEC,-,inhibition,6.25 µg/mL,0%
Cc1cc(C)c(C(=O)NN)[nH]1,H37Rv,-,BACTEC,-,inhibition,6.25 µg/mL,21%
CCCCCCCCS(=O)(=O)CC(N)=O,CSU93,-,-,-,MIC,-,≤25 µg/mL
Clc1ccccc1CSc1ncn[nH]1,My 331/88,-,-,-,MIC,-,500 µM
CC1COc2c(N3CCN(C)CC3)c(F)cc3c(=O)c(C(=O)O)cn1c23,106-2,-,-,-,MIC,-,1 µg/mL
CC1C(C(N)=O)C(=O)OC1(C)C,H37Rv,-,BACTEC,-,inhibition,12.5 µg/mL,-16%
Cc1ccc(-n2cc(CSC3c4ccccc4-c4ccccc43)nn2)cc1,H37Rv,-,broth dilution,-,MIC99,-,135 µM
CC(=O)Nc1ccc(OCC(=O)NN2C(=O)CSC2/C=C/c2ccccc2)cc1,H37Rv,-,-,-,inhibition,12.5 µg/mL,0%
COc1cnc2ccc(=O)n(CCN3CCC(NCc4cc(Cl)c(Cl)cn4)CC3)c2c1,Beijing 1237,-,resazurin,-,MIC,-,0.03 µg/mL
Cc1[nH]n(-c2ccccc2)c(=O)c1N=Nc1ccc(-c2n[nH]c(=O)n2-c2ccccc2)cc1,H37Rv,-,-,-,EC50,-,>12.5 µg/mL
CC1=Nc2ccccc2S/C1=C(/C)NNS(=O)(=O)c1ccc(C)cc1,H37Rv,-,resazurin,-,inhibition,6.25 µg/mL,-19%
CCOC(=O)c1c(C)c(-c2ccccc2)n(CC(=O)NN)c1C,H37Rv,-,BACTEC,-,inhibition,6.25 µg/mL,13%
Cc1cccc(C(=O)Nc2nc(Cl)cc3c2ncn3C)c1,H37Rv,-,visual reading,-,MIC99,-,>25 µM
NCC[C@H](O)C(=O)N[C@@H]1C[C@H](N)[C@@H](O[C@H]2O[C@H](CN)[C@@H](O)[C@H](O)[C@H]2O)[C@H](O)[C@H]1O[C@H]1O[C@H](CO)[C@@H](O)[C@H](N)[C@H]1O,3S,-,-,-,MIC,-,2.5 µg/mL
COC(=O)c1c(C(=O)OC)c2cc(C(=O)OC(C)C)ccn2c1C(=O)c1ccc(Br)cc1,-,MDR-MTB,resazurin,-,MIC,-,8 µg/mL
CC(=O)Nc1ccc(OCC(=O)NN2C(=O)CSC2c2ccccc2)cc1,H37Rv,-,-,-,inhibition,12.5 µg/mL,0%
CCNc1nnc(-c2ccc(NC(=S)Nc3ccccc3)cc2)s1,H37Rv,-,-,-,EC50,-,>6.25 µg/mL
O=C1C(Cl)=C(NNc2nnc(NNC3=C(Cl)C(=O)c4ccccc4C3=O)c3ccccc23)C(=O)c2ccccc21,H37Rv,-,BACTEC,-,MIC bound,-,>12.5 µg/mL
O=[N+]([O-])c1ccccc1CSc1ncn[nH]1,My 331/88,-,-,-,MIC,-,1000 µM
COC(=O)C(NC(=O)c1c2nc3c(C(=O)NC(C(=O)OC)C(C)O)ccc(C)c3oc-2c(C)c(=O)c1N)C(C)O,H37Rv,-,BACTEC,-,MIC bound,-,>12.5 µg/mL
O=[N+]([O-])c1cccc(CSc2ncn[nH]2)c1,My 331/88,-,-,-,MIC,-,1000 µM
O=S(=O)(Cc1cn(-c2ccc(Cl)cc2Cl)nn1)C1c2ccccc2-c2ccccc21,H37Rv,-,broth dilution,-,MIC99,-,>219 µM
CCOC(=O)c1cc(-c2ccc([N+](=O)[O-])cc2)n(CC(=O)N/N=C/c2ccc(O)c(OCC)c2)c1C,H37Rv,-,BACTEC,-,inhibition,6.25 µg/mL,0%
Cc1coc(C)c1C(=O)c1cn(-c2ccccc2)nn1,H37Rv,-,-,-,MIC,-,>12.5 µg/mL
S=C(Nc1ccccc1)Nc1ccc(-c2nnc(Nc3ccc(Cl)cc3)s2)cc1,H37Rv,-,-,-,inhibition,6.25 µg/mL,32%
FC(F)(F)c1cc(CSc2ncn[nH]2)cc(C(F)(F)F)c1,My 331/88,-,-,-,MIC,-,125 µM
O=C(c1cn(-c2ccccc2)nn1)c1ccc(Cl)cc1Cl,H37Rv,-,-,-,inhibition,12.5 µg/mL,49%
Cn1cnc2c(NC(=O)Nc3ccccc3)nc(Cl)cc21,H37Rv,-,visual reading,-,MIC99,-,25 µM
[O-][n+]1c2ccccc2[n+]([O-])c2cc(O)ccc21,H37Rv,-,BACTEC,-,inhibition,12.5 µg/mL,85%
Cc1[nH]n(-c2ccccc2)c(=O)c1N=Nc1ccc(C(=O)N/N=C/c2ccc(F)cc2)cc1,H37Rv,-,-,-,inhibition,12.5 µg/mL,25%
COC(=O)NCCCCCCNC(=O)OC,H37Rv,-,resazurin,-,inhibition,6.25 µg/mL,10%
CN[C@@H]1[C@H](O[C@H]2[C@H](O[C@H]3[C@H](O)[C@@H](O)[C@H](N=C(N)N)[C@@H](O)[C@@H]3N=C(N)N)O[C@@H](C)[C@]2(O)C=O)O[C@@H](CO)[C@H](O)[C@H]1O,8666/2010,-,-,-,MIC,-,>27.5 µM
S=C(Nc1ccccc1)Nc1ccc(-c2nnc(NCc3ccccc3)s2)cc1,H37Rv,-,-,-,inhibition,6.25 µg/mL,16%
O=C1C(Cl)=C(Nc2ccc(Nc3ccccc3)c(NC3=C(Cl)C(=O)c4ccccc4C3=O)c2)C(=O)c2ccccc21,H37Rv,-,BACTEC,-,inhibition,12.5 µg/mL,82%
Cc1ccc(C(=O)Nc2nc(Cl)cc3c2ncn3C)cc1,H37Rv,-,visual reading,-,MIC99,-,>25 µM
O=C(c1ccccc1)c1cn(-c2ccc(Cl)cc2)nn1,H37Rv,-,-,-,inhibition,12.5 µg/mL,0%
CC(=O)Nc1ccc(S(=O)(=O)N/N=C/c2ccc(Cl)c(Cl)c2)cc1,H37Rv,-,BACTEC,-,MIC,-,≥12.5 µg/mL
CC(=O)c1cn[nH]n1,H37Rv,-,-,-,inhibition,12.5 µg/mL,14%
CCOC(=O)/C(N=Nc1ccc(C(=O)N/N=C\c2ccc(F)cc2)cc1)=C(\C)O,H37Rv,-,-,-,inhibition,12.5 µg/mL,62%
CC(=O)Nc1ccc(OCC(=O)NN2C(=O)C(C)SC2c2ccccc2)cc1,H37Rv,-,-,-,inhibition,12.5 µg/mL,0%
CC(/C=N/NC(=S)NC12CC3CC(CC(C3)C1)C2)=C\c1ccccc1,H37Rv,-,BACTEC,-,inhibition,6.25 µg/mL,38%
CC(=O)n1nc(-c2ccc(N=Nc3c(C)[nH]n(-c4ccccc4)c3=O)cc2)n(-c2ccccc2)c1=S,H37Rv,-,-,-,EC50,-,~12.5 µg/mL
CCN(CC)CCCCCCNc1cc(OC)cc2c(C)ccnc12,H37Rv,-,BACTEC,-,MIC bound,-,>12.5 µg/mL
C/C(=N\N)c1c(C)[nH]c(C(=O)NN)c1C,H37Rv,-,BACTEC,-,EC50,-,>6.25 µg/mL
COC(=O)[C@@H]1[C@H]2C[C@@H]3c4[nH]c5ccccc5c4CCN3C[C@@H]2CC[C@@H]1O,H37Rv,-,BACTEC,-,inhibition,12.8 µg/mL,11%
CC[C@H]1OC(=O)[C@H](C)[C@@H](O[C@H]2C[C@@](C)(OC)[C@@H](O)[C@H](C)O2)[C@H](C)[C@@H](O[C@@H]2O[C@H](C)C[C@H](N(C)C)[C@H]2O)[C@](C)(OC)C[C@@H](C)C(=O)[C@H](C)[C@@H](O)[C@]1(C)O,22 strains (rifampin- isoniazid-resistant),-,-,-,MIC90,-,25 µg/mL
CC1(C)N=c2cc3c(cc2N1c1ccc(Cl)cc1)=Nc1ccccc1N3c1ccc(Cl)cc1,H37Rv,-,BACTEC,-,MIC bound,-,≤12.5 µg/mL
Cc1ccc(Cn2nnc(-c3cc([N+](=O)[O-])cc([N+](=O)[O-])c3)n2)cc1,234/2005,-,-,14 d,MIC,-,0.125 µM

MIC bound: limit read from a one-dose screen. Neighbouring rows are from separate reports. ECn is the concentration giving n% inhibition of infection, replication or growth. MIC50, MIC90 and the like: level of inhibition, or share of isolates inhibited. Inhibition is in % at the dose shown (toxicity tests: loss of growth or viability).